Molecules are shown by their SMILES.

Data set [1] deals with T1, Human immunodeficiency virus type 1 reverse transcriptase (Human immunodeficiency virus 1, UniProt Q72547). As to the kind of experiment: Inhibition of HIV1 recombinant reverse transcriptase associated catalytically active RNase H domain assessed as reduction in internal cleavage using HTS-1 RNA/DNA duplex substrate by fluorescence assay.
The target in data set [2] is T1, Human immunodeficiency virus type 1 reverse transcriptase. Kind of data set: Inhibition of HIV1 recombinant reverse transcriptase associated catalytically active RNase H domain assessed as reduction in RNA 5' end directed cleavage using HTS-3 RNA/DNA duplex substrate by fluorescence assay.
Data set [3] in a line: Selectivity index, ratio of IC50 for HIV integrase to IC50 for HIV1 recombinant reverse transcriptase associated catalytically active RNase H-mediated domain internal cleavage activity. Put shortly:
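Ratio of HIV integrase strand-transfer IC50 to RNase H IC50 on HTS-1 substrate. Integrase (1 μM) preincubated 10 min at 25 °C with compound (0.13–100 μM final, duplicate) in 10 mM HEPES pH 7.5, 10% glycerol, 10 mM MnCl2, 1 mM DTT; biotin/Cy5 oligo duplex added, 30 min at 37 °C; EDTA stop, streptavidin capture, NaOH washes, formamide elution, 635/675 read.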

Data set [4] has as its target T1, Human immunodeficiency virus type 1 reverse transcriptase. As to the kind of experiment: Inhibition of HIV1 recombinant reverse transcriptase polymerase activity using [3H]TTP and poly(rA)-oligo(dT)16 substrate incubated for 20 mins by liquid scintillation spectrometry. Put shortly: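 HIV RT (WT or NNRTI-resistant mutant, 10 nM) added to start reaction with 10 μM [3H]-TTP and 40 nM poly(rA)-oligo(dT)16 in 50 mM Tris-HCl pH 7.4, 60 mM KCl, 5 mM MgCl2; 20 min at 37 °C. Quenched with ice-cold 10% TCA/20 mM sodium pyrophosphate, glass-fiber filtered, washed with TCA and ethanol; incorporation counted by scintillation.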

Data set [5] concerns the target Human immunodeficiency virus type 1 integrase (Human immunodeficiency virus 1, UniProt Q7ZJM1). As to the kind of experiment: Inhibition of HIV integrase pre-incubated for 10 mins before DNA substrate addition. In outline: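 Strand transfer assay: 1 μM HIV integrase in 10 mM HEPES pH 7.5, 10% glycerol, 10 mM MnCl2, 1 mM DTT, with compound at 0.13–100 μM final in duplicate, preincubated 10 min at 25 °C. Started with biotin/Cy5-labelled oligo duplex, run 30 min at 37 °C, stopped with EDTA. Products captured on streptavidin beads, washed with NaOH, eluted in formamide and read at 635/675. Mean ± SD from at least three experiments.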

Data set [6] addresses T1, Human immunodeficiency virus type 1 reverse transcriptase. As to the kind of experiment: Inhibition of HIV1 recombinant reverse transcriptase associated catalytically active RNase H domain assessed as reduction in DNA 3' end directed cleavage using HTS-2 RNA/DNA duplex substrate by fluorescence assay.
Data set [7] has the same target. Kind of data set: Inhibition of reconstituted HIV1 RNase H using RNA/DNA duplex substrate by fluorescence assay.
The nature of data set [8]: Therapeutic index, ratio of CC50 for human HeLa P4/R5 cells to EC50 for HIV infected in human HeLa P4/R5 cells. The note with it: read-out: Ratio CC50/EC50. In kind it is cell-based.

With `O=C1Cc2cc(Cc3ccc(-c4ccncc4)cc3)ccc2C(=O)N1O`, the half-inhibitory concentration (IC50) in data set [1] was found to be 0.5 µM; in data set [2], 1 µM; in data set [4], 0.9 µM; in data set [5], 5.7 µM; in data set [6], 1.3 µM. The Ratio IC50 in data set [3] came to 11.

In the case of `COc1ccc(-c2ccc(Cc3ccc4c(c3)CC(=O)N(O)C4=O)cc2)cc1`, the IC50 in data set [1] was 3 µM; in data set [2], 2 µM; in data set [4], 2.5 µM; in data set [7] it was 1 µM; in data set [5] it was over 100 µM; in data set [6], 3.1 µM.

As for `Cc1ccc(Cc2ccc3c(c2)CC(=O)N(O)C3=O)cc1`, the IC50 in data set [1] came out at 1.2 µM; in data set [2], 1.1 µM; in data set [4], 2 µM; in data set [7], 0.9 µM; in data set [5], 36 µM; in data set [6], 1.3 µM.

On to `CS(=O)(=O)c1ccc(-c2ccc(Cc3ccc4c(c3)CC(=O)N(O)C4=O)cc2)cc1`, for which the IC50 was 1.2 µM in data set [1]; 1.4 µM in data set [2]; 1.8 µM in data set [4]; 1.2 µM in data set [7]; 11 µM in data set [5]; 1.3 µM in data set [6]. Moreover, in data set [3], the Ratio IC50 came out at 9.2.

Take `O=C1Cc2cc(Cc3ccc(F)cc3F)ccc2C(=O)N1O`: the IC50 in data set [1] is 1.6 µM; in data set [2], 1 µM; in data set [4] it was 2.3 µM; in data set [7], 1.2 µM; in data set [5], 20 µM; in data set [6], 1.5 µM.

Regarding `O=C1Cc2cc(Cc3ccc(C4CC4)cc3)ccc2C(=O)N1O`, the Ratio IC50 in data set [3] was found to be 6.3. For the same compound, in data set [4], the IC50 came to 1.3 µM.

As to `N#Cc1ccc(-c2ccc(Cc3ccc4c(c3)CC(=O)N(O)C4=O)cc2)cc1`, the selectivity ratio in data set [8] was over 4. The 50% inhibitory concentration (IC50) in data set [4] is 0.75 µM.

Turning to `NC(=O)c1ccc(-c2ccc(Cc3ccc4c(c3)CC(=O)N(O)C4=O)cc2)cc1`, the IC50 in data set [1] stood at 2.4 µM; in data set [2] it was 2.9 µM; in data set [4], 2.6 µM; in data set [5] it was 9.1 µM; in data set [6], 2.1 µM.

For `O=C1Cc2cc(Cc3ccc(-c4ccc(F)cc4)cc3)ccc2C(=O)N1O`, in data set [4], the IC50 was determined as 3.7 µM.

For `O=C1Cc2cc(Cc3ccc(-c4ccccc4)cc3)ccc2C(=O)N1O`, the selectivity ratio in data set [8] was found to be 17. Further, the IC50 in data set [4] worked out at 1.6 µM.

Take `O=C1Cc2cc(Cc3ccc(-c4ccc(C(F)(F)F)cc4C(F)(F)F)cc3)ccc2C(=O)N1O`: the IC50 in data set [1] is 5.1 µM; in data set [2], 5.6 µM; in data set [4] it was 6.5 µM; in data set [7], 2.5 µM; in data set [5] it was 9.1 µM; in data set [6], 8.7 µM.

In the case of `O=C1Cc2cc(Cc3ccc(C(F)(F)F)cc3)ccc2C(=O)N1O`, in data set [8], the selectivity ratio came out at 8. In addition, in data set [4], the IC50 was determined as 3.3 µM.

For the compound `O=C1Cc2cc(Cc3ccc(Cl)cc3)ccc2C(=O)N1O`, the IC50 stood at 3.9 µM in data set [1]; 4 µM in data set [2]; 3.8 µM in data set [4]; 2.9 µM in data set [7]; 3.7 µM in data set [6]. For the same compound, the Ratio IC50 in data set [3] turned out to be 1.1.

Take `O=C1Cc2cc(Cc3ccc(Br)cc3)ccc2C(=O)N1O`: the IC50 in data set [1] was found to be 1.4 µM; in data set [2], 1.1 µM; in data set [4], 1.5 µM; in data set [7] it was 1 µM; in data set [5], 28 µM; in data set [6] it was 1.3 µM.

As a reminder, the IC50 is the point on the concentration scale where inhibition reaches its midpoint.

The record behind these values is ChEMBL document CHEMBL3414532 (J Med Chem, 2015).
